The NIST ThermoML archive (doi:10.1016/j.jct.2013.10.018)
Numbers after ± are expanded uncertainties.

Test: xn = mol fraction of the nth substance listed
Details: 101 kPa, Liquid; for speed of sound: Sing-around technique in a fixed-path interferometer; for mass density: Vibrating tube method

CCCCOP(=O)(OCCCC)OCCCC [tributyl phosphate] + CCCCCCCCCCO
speed of sound (298.15 K, x1 = 0.019): 1375 ± 3 m/s
speed of sound (298.15 K, x1 = 0.04): 1370 ± 3 m/s
speed of sound (298.15 K, x1 = 0.063): 1365 ± 3 m/s
speed of sound (298.15 K, x1 = 0.099): 1358 ± 3 m/s
speed of sound (298.15 K, x1 = 0.2): 1340 ± 3 m/s
speed of sound (298.15 K, x1 = 0.292): 1325 ± 3 m/s
speed of sound (298.15 K, x1 = 0.398): 1311 ± 3 m/s
speed of sound (298.15 K, x1 = 0.501): 1298 ± 3 m/s
speed of sound (298.15 K, x1 = 0.599): 1289 ± 3 m/s
speed of sound (298.15 K, x1 = 0.703): 1281 ± 3 m/s
speed of sound (298.15 K, x1 = 0.803): 1274 ± 3 m/s
speed of sound (298.15 K, x1 = 0.904): 1269 ± 3 m/s
speed of sound (298.15 K, x1 = 0.92): 1268 ± 3 m/s
speed of sound (298.15 K, x1 = 0.946): 1267 ± 3 m/s
speed of sound (298.15 K, x1 = 0.973): 1266 ± 3 m/s
speed of sound (298.15 K, x1 = 1): 1265 ± 3 m/s
mass density (298.15 K, x1 = 0.019): 829.97 ± 0.45 kg/m3
mass density (298.15 K, x1 = 0.04): 833.94 ± 0.44 kg/m3
mass density (298.15 K, x1 = 0.063): 838.11 ± 0.44 kg/m3
mass density (298.15 K, x1 = 0.099): 844.9 ± 0.4 kg/m3
mass density (298.15 K, x1 = 0.2): 862.8 ± 0.4 kg/m3
mass density (298.15 K, x1 = 0.292): 877.97 ± 0.4 kg/m3
mass density (298.15 K, x1 = 0.398): 894.53 ± 0.38 kg/m3
mass density (298.15 K, x1 = 0.501): 909.53 ± 0.37 kg/m3
mass density (298.15 K, x1 = 0.599): 923.45 ± 0.36 kg/m3
mass density (298.15 K, x1 = 0.703): 937.13 ± 0.35 kg/m3
mass density (298.15 K, x1 = 0.803): 949.69 ± 0.34 kg/m3
mass density (298.15 K, x1 = 0.904): 961.91 ± 0.32 kg/m3
mass density (298.15 K, x1 = 0.92): 963.71 ± 0.33 kg/m3
mass density (298.15 K, x1 = 0.946): 966.71 ± 0.33 kg/m3
mass density (298.15 K, x1 = 0.973): 969.8 ± 0.3 kg/m3
speed of sound (303.15 K, x1 = 0.019): 1358 ± 3 m/s
speed of sound (303.15 K, x1 = 0.04): 1353 ± 3 m/s
speed of sound (303.15 K, x1 = 0.063): 1348 ± 3 m/s
speed of sound (303.15 K, x1 = 0.099): 1341 ± 3 m/s
speed of sound (303.15 K, x1 = 0.2): 1323 ± 3 m/s
speed of sound (303.15 K, x1 = 0.292): 1308 ± 3 m/s
speed of sound (303.15 K, x1 = 0.398): 1294 ± 3 m/s
speed of sound (303.15 K, x1 = 0.501): 1281 ± 3 m/s
speed of sound (303.15 K, x1 = 0.599): 1273 ± 3 m/s
speed of sound (303.15 K, x1 = 0.703): 1264 ± 3 m/s
speed of sound (303.15 K, x1 = 0.803): 1257 ± 3 m/s
speed of sound (303.15 K, x1 = 0.904): 1252 ± 3 m/s
speed of sound (303.15 K, x1 = 0.92): 1251 ± 3 m/s
speed of sound (303.15 K, x1 = 0.946): 1250 ± 3 m/s
speed of sound (303.15 K, x1 = 0.973): 1249 ± 3 m/s
speed of sound (303.15 K, x1 = 1): 1248 ± 3 m/s
mass density (303.15 K, x1 = 0.019): 826.54 ± 0.45 kg/m3
mass density (303.15 K, x1 = 0.04): 830.48 ± 0.44 kg/m3
mass density (303.15 K, x1 = 0.063): 834.63 ± 0.44 kg/m3
mass density (303.15 K, x1 = 0.099): 841.37 ± 0.43 kg/m3
mass density (303.15 K, x1 = 0.2): 859.15 ± 0.41 kg/m3
mass density (303.15 K, x1 = 0.292): 874.23 ± 0.39 kg/m3
mass density (303.15 K, x1 = 0.398): 890.68 ± 0.38 kg/m3
mass density (303.15 K, x1 = 0.501): 905.61 ± 0.37 kg/m3
mass density (303.15 K, x1 = 0.599): 919.44 ± 0.36 kg/m3
mass density (303.15 K, x1 = 0.703): 933.04 ± 0.35 kg/m3
mass density (303.15 K, x1 = 0.803): 945.53 ± 0.34 kg/m3
mass density (303.15 K, x1 = 0.904): 957.67 ± 0.32 kg/m3
mass density (303.15 K, x1 = 0.92): 959.45 ± 0.33 kg/m3
mass density (303.15 K, x1 = 0.946): 962.44 ± 0.33 kg/m3
mass density (303.15 K, x1 = 0.973): 965.51 ± 0.32 kg/m3
speed of sound (308.15 K, x1 = 0.019): 1341 ± 3 m/s
speed of sound (308.15 K, x1 = 0.04): 1336 ± 3 m/s
speed of sound (308.15 K, x1 = 0.063): 1331 ± 3 m/s
speed of sound (308.15 K, x1 = 0.099): 1324 ± 3 m/s
speed of sound (308.15 K, x1 = 0.2): 1306 ± 3 m/s
speed of sound (308.15 K, x1 = 0.292): 1292 ± 3 m/s
speed of sound (308.15 K, x1 = 0.398): 1277 ± 3 m/s
speed of sound (308.15 K, x1 = 0.501): 1264 ± 3 m/s
speed of sound (308.15 K, x1 = 0.599): 1256 ± 3 m/s
speed of sound (308.15 K, x1 = 0.703): 1247 ± 3 m/s
speed of sound (308.15 K, x1 = 0.803): 1241 ± 3 m/s
speed of sound (308.15 K, x1 = 0.904): 1236 ± 3 m/s
speed of sound (308.15 K, x1 = 0.92): 1234 ± 3 m/s
speed of sound (308.15 K, x1 = 0.946): 1233 ± 3 m/s
speed of sound (308.15 K, x1 = 0.973): 1232 ± 3 m/s
speed of sound (308.15 K, x1 = 1): 1231 ± 3 m/s
mass density (308.15 K, x1 = 0.019): 823.09 ± 0.45 kg/m3
mass density (308.15 K, x1 = 0.04): 827.02 ± 0.44 kg/m3
mass density (308.15 K, x1 = 0.063): 831.14 ± 0.44 kg/m3
mass density (308.15 K, x1 = 0.099): 837.84 ± 0.42 kg/m3
mass density (308.15 K, x1 = 0.2): 855.5 ± 0.4 kg/m3
mass density (308.15 K, x1 = 0.292): 870.47 ± 0.39 kg/m3
mass density (308.15 K, x1 = 0.398): 886.82 ± 0.38 kg/m3
mass density (308.15 K, x1 = 0.501): 901.68 ± 0.37 kg/m3
mass density (308.15 K, x1 = 0.599): 915.41 ± 0.36 kg/m3
mass density (308.15 K, x1 = 0.703): 928.94 ± 0.34 kg/m3
mass density (308.15 K, x1 = 0.803): 941.36 ± 0.34 kg/m3
mass density (308.15 K, x1 = 0.904): 953.42 ± 0.32 kg/m3
mass density (308.15 K, x1 = 0.92): 955.2 ± 0.3 kg/m3
mass density (308.15 K, x1 = 0.946): 958.17 ± 0.32 kg/m3
mass density (308.15 K, x1 = 0.973): 961.22 ± 0.32 kg/m3
